Here are results for 2 molecules from patent US20130156708A1, “PHENOL DERIVATIVES AS ANTIMICROBIAL AGENTS” (Symrise AG, priority 2011, published 2013).

SMILES strings stand for the structures.

The nature of series [1]: Sensory test in basic formulations for personal care and home care. Particulars: 0.5% in bar soap, all purpose cleaner, liquid detergent, detergent powder, fabric softener, body lotion, hair shampoo.
A short description of series [2]: Smell description in own experiments.
The nature of series [3]: Taste impressions in sugar slurry.

In the case of `CC(C)=CCc1ccccc1O` [IIIa, 2-(3-Methylbut-2-enyl)phenol], the “sensory impression versus comparison compositions without compound” value in series [1] is reported as “no negative sensory impression observed”. For the same molecule, in series [2], the smell entry is “rosy, green, clove-like, slightly technical”. Besides, the Taste impression entry in series [3] (dosage 0.01%) is reported as “neutral-no taste impression”; in series [3] (dosage 0.03%), “green, sweet, camphor-like, rock-candy, floral”; in series [3] (dosage 0.05%) it was “strong flavor impression, sweet, candy-floss, green, technical,”.
With `CC(C)=CCc1ccc(O)cc1` [IIa, 4-(3-Methylbut-2-enyl)phenol], in series [1], the “sensory impression versus comparison compositions without compound” value is “no negative sensory impression observed”. Further, the smell result in series [2] is given as “rosy, green, clove-like, slightly technical”. Besides, the Taste impression entry is “neutral-no taste impression” in series [3] (dosage 0.01%); “green, sweet, camphor-like, rock-candy, floral” in series [3] (dosage 0.03%); “strong flavor impression, sweet, candy-floss, green, technical,” in series [3] (dosage 0.05%).
